Measured values: PMC5934680, “A new class of antibacterials, the imidazopyrazinones, reveal structural transitions involved in DNA gyrase poisoning and mechanisms of resistance” (Nucleic Acids Research, 2018)

Tests used:
Assay type in all cases: biochemical
[1] = target: E. coli DNA gyrase GyrA mutant EcS83L (Escherichia coli, UniProt P0AES4+P0AES6, S83L); assay: Supercoiling inhibition assay, GyrA EcS83L mutant gyrase
Protocol: (§1) Supercoiling reactions were carried out as described previously ([24]) with minor adjustments. A total of 500 ng of relaxed pBR322 plasmid was used as a substrate for each 30 μl reaction. The amount of DNA gyrase (A2B2) added was normalized by testing various dilutions of the stock (A2B2 containing 0.5 mg/ml of each subunit) without compound. The amount sufficient to supercoil 50% of the substrate was then used for the testing of compounds. See Supplementary Figure S1 for details. This ensured a limiting amount of enzyme for every mutant tested. The individual gyrase subunits were either prepared in the lab as described previously ([25]) or purchased from Inspiralis.
(§2) The activity of tricyclic and bicyclic IPYs (Figure 1) was tested in a supercoiling inhibition assay (Table 1) on wild-type (wt) E. coli DNA gyrase and GyrA mutants EcS83L (SaS84), EcD87A (SaE88) and EcD82N (SaD83). These residues are located in the ‘Quinolone-Resistance-Determining-Region’, frequently found mutated in resistant clinical isolates ([18],[35–38]). Based on the structures solved of FQs bound to DNA gyrase and topo IV, it has been established that both residues EcS83 and EcD87 are involved in a water–metal–ion bridge that is important for the stabilization of the ternary complex, explaining the resistance to FQs observed when these residues are mutated ([15–16],[23],[29],[39]).

[2] = target: E. coli DNA gyrase GyrA mutant EcD87A (Escherichia coli, UniProt P0AES4+P0AES6, D87A); assay: Supercoiling inhibition assay, GyrA EcD87A mutant gyrase
Protocol: as §1, §2

[3] = target: E. coli DNA gyrase GyrA mutant EcD82N (Escherichia coli, UniProt P0AES4+P0AES6, D82N); assay: Supercoiling inhibition assay, GyrA EcD82N mutant gyrase
Protocol: as §1, §2

Structure (SMILES): O=c1c2nccn2c2cc(F)c(-c3ccncc3)cc2n1C1CC1 [t3]
- IC50 [1]: 12 µM
- Resistance of EcS83L mutant enzyme in supercoiling inhibition ([1]; EcS83L compared to wt): partial resistance
- IC50 [2]: 1.6 µM
- Resistance of EcD87A mutant enzyme in supercoiling inhibition ([2]; EcD87A compared to wt): low to no resistance
- IC50 [3]: 4 to 20 µM
- Resistance of EcD82N mutant enzyme in supercoiling inhibition ([3]; EcD82N compared to wt): high resistance
